Compound potency records, mixed from different reports. Data source: NIAID ChemDB in PubChem.

Shared fields: tests in culture; organism: Herpes simplex virus 1; measure: EC50

Blank or dashed fields: not listed here. ECn is the concentration giving n% inhibition of infection, replication or growth. Lines come from different laboratories, so protocols vary.

smiles | strain | cells | read by | value
Nc1nc2c(ncn2COC(CO)CO)c(=O)[nH]1 | TK- | VERO | cytopathic effect | 18 µg/mL
O=c1[nH]c(=O)n(COCCO)cc1Br |  |  | plaque count | >100 µM
Nc1nc(=O)n([C@@H]2O[C@H](COP(=O)([O-])[O-])[C@@H](O)[C@H]2O)cc1F | KOS | VERO | cytopathic effect | 20 µM
Nc1nc(=O)n([C@H]2C[C@H](O)[C@@H](CO)O2)cc1/C=C/Br |  | BHK-21 | plaque count | 0.45 µM
Nc1nc2c(ncn2COCCO)c(=O)[nH]1 |  | VERO | plaque count | 1.9 µg/mL
Nc1nc2c(ncn2CC(CO)CCO)c(=O)[nH]1 | C42 (acyclovir-resistant) | VERO | plaque count | 60 µM
Nc1nc2c(ncn2[C@@H]2C[C@H](CO)[C@H]2CO)c(=O)[nH]1 | TK- | VERO | cytopathic effect | 11 µg/mL
Nc1nc(=S)n([C@@H]2O[C@H](CO)[C@@H](O)[C@@H]2O)cc1F | KOS |  |  | 0.046 µg/mL
Nc1nccc2c1ncn2[C@@H]1C[C@H](CO)[C@@H](O)[C@H]1O | TK-/B2006 |  | cytopathic effect | 40 µg/mL
Nc1nc2c(ncn2C[C@H]2C[C@H]2CO)c(=O)[nH]1 |  | VERO |  | >50 µM
Cc1ccc(Cc2nn(COC(CO)CO)c(=O)[nH]c2=O)cc1 |  | HFF | cytopathic effect | >100 µM
Nc1nc2c(ncn2CCC(CO)CO)c(=O)[nH]1 |  | VERO | cytopathic effect | 6.6 µg/mL
Nc1nc2c(ncn2COCCO)c(=O)[nH]1 |  | HFF | plaque count | 4.1 µM
O=C(O)CP(=O)(O)O | HL-34 | MEF | plaque count | 6.1 µg/mL
O=C(OC1OC2COC(=O)c3cc(O)c(O)c(O)c3-c3c(cc(O)c(O)c3O)C(=O)OC2C(OC(=O)c2cc(O)c(O)c(O)c2)C1OC(=O)c1cc(O)c(O)c(O)c1)c1cc(O)c(O)c(Oc2c(C(=O)OC3OC4COC(=O)c5cc(O)c(O)c(O)c5-c5c(cc(O)c(O)c5O)C(=O)OC4C(OC(=O)c4cc(O)c(O)c(O)c4)C3OC(=O)c3cc(O)c(O)c(O)c3)cc(O)c(O)c2O)c1 | HF | CV-1 | plaque count | 0.038 µg/mL
O=Cc1cn([C@H]2C[C@H](O)[C@@H](CO)O2)c(=O)[nH]c1=O | KOS | HSF | cytopathic effect | 0.4 µg/mL
O=c1[nH]c(=O)n(COCCO)cc1C(F)(F)F |  |  | plaque count | >100 µM
CCN(CC)CC(=O)Nc1ccc(NC(=S)Nc2ccc(NC(C)=O)cc2)cc1Cl |  | VERO | ELISA | >10 µg/mL
O=c1ccn(C[C@H]2C[C@H]2[C@H](O)CO)c(=O)[nH]1 |  | VERO |  | >50 µM
Cc1cn([C@@H]2C=C(CO)[C@@H](CO)O2)c(=O)[nH]c1=O |  |  |  | 33 µg/mL
OC[C@H]1O[C@@H](c2c(SCc3ccccc3)[nH]c3cc(Cl)c(Cl)cc23)[C@H](O)[C@@H]1O |  | BSC-1 | ELISA | >100 µM
Cc1ccc(Cc2nn(COCCO)c(=O)[nH]c2=O)cc1 |  | HFF | cytopathic effect | >100 µM
O=C1O[C@H]2[C@@H]3OC(=O)c4cc(O)c(O)c(O)c4-c4c(cc(O)c(O)c4O)C(=O)OC[C@H]2O[C@@H](OC(=O)c2cc(O)c(O)c(O)c2)[C@@H]3OC(=O)c2cc(O)c(O)c3c2[C@@H]2C1=CC(=O)[C@](O)(O3)C2(O)O | HF | CV-1 | plaque count | 0.093 µg/mL
OC[C@H]1O[C@@H](c2c(Cl)[nH]c3cc(Cl)c(Cl)cc23)[C@H](O)[C@@H]1O |  | BSC-1 | ELISA | >100 µM
O=C(CC1CCCCC1)N(O)c1ccccc1 | KOS | E6SM | cytopathic effect | >80 µg/mL
O=c1[nH]c(=O)n([C@H]2C[C@H](O)[C@@H](CO)O2)cc1I | VEX149 | PRK | cytopathic effect | 0.15 µg/mL
OC[C@@H]1O[C@@H](n2c(Cl)nc3cc(Cl)c(Cl)cc32)[C@H](O)[C@H]1O |  | HFF | ELISA | >100 µM
Cc1cn(CC2(CO)CC2CO)c(=O)[nH]c1=O |  | VERO | plaque count | >500 µg/mL
CC(=O)Nc1ccc(NC(=S)Nc2ccc(N(C)CCO)c(Cl)c2)cc1 |  | VERO | ELISA | >50 µg/mL
O=c1c2ncn(COC(CO)CO)c2nc2[nH]c(-c3ccccc3)cn12 | B2006 (TK-) | E6SM | cytopathic effect | >30 µg/mL
Nc1nc2c(ncn2C[C@]2(CO)C[C@H]2CO)c(=O)[nH]1 | TK- | VERO | cytopathic effect | ≥70 µg/mL
Nc1ncnc2c1ncn2C[C@H]1C[C@H]1CO |  | VERO |  | >50 µM
Nc1ncnc2c1ncn2[C@H]1[C@H](O)[C@H](F)[C@@H](CO)[C@@H]1O | F | HEP-2 | cytopathic effect | 90 µM
COc1cc(OCc2ccccc2)c(NC(=S)Nc2ccc(NC(C)=O)cc2)cc1Cl |  | VERO | ELISA | 7 µg/mL
O=c1[nH]c(=O)n(COCCO)nc1Cc1ccc(Cl)cc1 |  | HFF | cytopathic effect | >100 µM
O=C(C1CC1)N(O)c1ccc(Cl)cc1 | KOS ACV-resistant TK- | E6SM | cytopathic effect | >80 µg/mL
CN1CCN(Cc2cn([C@H]3C[C@H](O)[C@@H](CO)O3)c(=O)[nH]c2=O)CC1 | KOS | PRK | cytopathic effect | >200 µg/mL
O=c1[nH]c(=O)n(COC(CO)CO)nc1Cc1ccccc1 |  | HFF | cytopathic effect | >100 µM
Nc1nc2c(ncn2C/C=C\CO)c(=O)[nH]1 | KJ502 | VERO | plaque count | 1 µM
CNc1nc2cc(Cl)c(Cl)cc2n1[C@@H]1O[C@@H](CO)[C@H](O)[C@H]1O |  | HFF | ELISA | >100 µM
Nc1ccn([C@@H]2O[C@H](CO)[C@@H](O)[C@@H]2O)c(=O)n1 | KOS | VERO | cytopathic effect | 0.34 µM
O=c1ccn(COCCO)c(=O)[nH]1 |  |  | plaque count | >100 µM
O=C(OC[C@H]1O[C@@H](OC(=O)c2cc(O)c(O)c(O)c2)[C@H](O)[C@@H](OC(=O)c2cc(O)c(O)c(O)c2)[C@@H]1O)c1cc(O)c(O)c(O)c1 | HF | CV-1 | plaque count | 0.034 µg/mL
OC[C@H]1O[C@@H](n2c(Br)nc3cc(Cl)c(Cl)cc32)[C@H](O)[C@@H]1O |  | HFF | plaque count | >251 µM
CSCc1cn([C@H]2C[C@H](O)[C@@H](CO)O2)c(=O)[nH]c1=O | VEX149 | PRK | cytopathic effect | 20 µg/mL
O=c1ccn(C[C@]2(CO)C[C@H]2CO)c(=O)[nH]1 |  | VERO | plaque count | >500 µg/mL
O=c1ccn(C[C@H]2C[C@H]2CO)c(=O)[nH]1 |  | VERO |  | >50 µM
COc1ccc(Cc2nn(COC(CO)CO)c(=O)[nH]c2=O)cc1 |  | HFF | cytopathic effect | >100 µM
Cc1cn([C@@H]2OCC(CO)=C2F)c(=O)[nH]c1=O |  |  |  | >100 µg/mL
COc1ncnc2c1ncn2[C@@H]1O[C@H](CO)[C@@H](O)[C@@H]1O |  | VERO | cytopathic effect | >100 µM

For reference, 7 entries again:

smiles | strain | cells | read by | value
Nc1nc(=S)n([C@@H]2O[C@H](CO)[C@@H](O)[C@@H]2O)cc1F | KOS |  |  | 0.046 µg/mL
COc1ccc(Cc2nn(COC(CO)CO)c(=O)[nH]c2=O)cc1 |  | HFF | cytopathic effect | >100 µM
Cc1ccc(Cc2nn(COCCO)c(=O)[nH]c2=O)cc1 |  | HFF | cytopathic effect | >100 µM
O=c1[nH]c(=O)n(COC(CO)CO)nc1Cc1ccccc1 |  | HFF | cytopathic effect | >100 µM
CCN(CC)CC(=O)Nc1ccc(NC(=S)Nc2ccc(NC(C)=O)cc2)cc1Cl |  | VERO | ELISA | >10 µg/mL
Nc1nc(=O)n([C@H]2C[C@H](O)[C@@H](CO)O2)cc1/C=C/Br |  | BHK-21 | plaque count | 0.45 µM
COc1ncnc2c1ncn2[C@@H]1O[C@H](CO)[C@@H](O)[C@@H]1O |  | VERO | cytopathic effect | >100 µM